{"source": "patent US20250268857A1", "about": "(priority 2020, published 2025)", "key": {"[1]": {"system": "Staphylococcus aureus (NBRC12732)"}, "[2]": {"system": "E. coli O157 (ATCC43888)"}, "[3]": {"system": "Klebsiella pneumoniae (ATCC4352)"}, "[4]": {"system": "Pseudomonas aeruginosa(NBRC3080)"}, "[5]": {"system": "E. coli (NBRC3972)"}}, "data": [{"substance": "zinc gluconate", "values": [{"measurement": "Minimum Inhibitory Concentration", "setting": "[1]", "value": 200, "unit": "ppm"}, {"measurement": "Minimum Inhibitory Concentration", "setting": "[2]", "value": 1600, "unit": "ppm"}, {"measurement": "Minimum Inhibitory Concentration", "setting": "[3]", "value": 400, "unit": "ppm"}, {"measurement": "Minimum Inhibitory Concentration", "setting": "[4]", "value": 1600, "unit": "ppm"}, {"measurement": "Minimum Inhibitory Concentration", "setting": "[5]", "value": 200, "unit": "ppm"}]}]}
